Pooled drug test results. Numbers come from NIAID ChemDB, via PubChem.

Common to all: whole-cell or culture tests; organism: HIV-1; cell line: C8166; read-out: EC50

ECn is the concentration giving n% inhibition of infection, replication or growth.

SMILES,strain or isolate,mutations,read by,result
CCC1(c2ccc(COc3ccccc3)cc2)Oc2ccccc2-n2cccc2C1=O,IIIB,,cytopathic effect,0.083 µM
O=C(Oc1cc(O)c2c(c1)O[C@H](c1ccc(O)c(O)c1)[C@@H](O)C2)c1cc(O)c(O)c(O)c1,IIIB,,ELISA,10 µg/mL
Cc1cn([C@H]2C[C@H](C#N)[C@@H](CO)O2)c(=O)[nH]c1=O,CBL-1,,cytopathic effect,>100 µg/mL
C=C(C)[C@@]1(OC(=O)c2ccccc2)[C@H](OC(C)=O)[C@@H]2[C@H](OC(C)=O)[C@@]3(C)O[C@@]4([C@@H]3O)[C@@H](O)[C@@H](C)C[C@H]4[C@@]2(O)[C@H](C)[C@@H]1OC(C)=O,IIIB,,syncytia / visual reading,0.684 µM
CC(C)c1c(CO)cn(Cc2ccncc2)c1Sc1cc(Cl)cc(Cl)c1,,RT-Y181C,p24,<1.7 µM
Cc1cn([C@H]2C[C@H](N=[N+]=[N-])[C@@H](COP(=O)(Oc3ccc(C(F)(F)F)cc3)Oc3ccc(C(F)(F)F)cc3)O2)c(=O)[nH]c1=O,IIIB,,ELISA,0.0064 µM
C/C=C(/C)C(=O)Oc1c(OC)c(OC)cc2c1-c1c(cc(OC)c(OC)c1OC)[C@H](O)[C@H](C)[C@H](C)C2,,,MTT,22.9 µM
C=C1C([C@@H](C)[C@H]2CC=C(C)C(=O)O2)=CC[C@]2(C)[C@H]1C[C@]1(O)C=C3C=CC(=O)OC(C)(C)[C@@H]3[C@H](OC(C)=O)C[C@@H]21,,,MTT,3.8 µg/mL
[Li+],IIIB,,antigen,>1000 µg/mL
C/C=C(/C)C(=O)O[C@H]1c2cc3c(c4c2C2(CO4)C(=O)C(OC)=C(OC)[C@H]4O[C@@H]([C@@H](C)[C@H]1C)C42O)OCO3,,,MTT,64.4 µg/mL
O=c1c2cccn2c2cccc(F)c2n1CCNC(=S)Nc1ccc(Br)cn1,IIIB,,cytopathic effect / MTT,0.025 µM
O=C1c2ccccc2C(=O)N1CCOC(=S)Nc1ccc(I)cc1,IIIB,,p24,<0.04 µM
Cc1cn([C@H]2C[C@H](N=[N+]=[N-])[C@@H](CO)O2)c(=O)[nH]c1=O,IIIB,,p24,0.02 µg/mL
Cc1cn([C@H]2C[C@H](N=[N+]=[N-])[C@@H](COP(=O)(Oc3ccccc3)Oc3ccccc3)O2)c(=O)[nH]c1=O,IIIB,,ELISA,0.32 µM
CC(C)=CCC/C(C)=C/CC/C(C)=C/CC/C(C)=C/Cc1cc(O)cc2c1OC(=O)C2,IIIB,,syncytia,1.56 µM
Oc1cc(O)c2c(c1)O[C@H](c1ccc(O)c(O)c1)[C@H](O)C2,IIIB,,ELISA,2 µg/mL
NC1=Nc2c(ncn2CCC(/C=C/P(=O)(O)O)CO)C(=O)C1,RF,,p24,8 µM
Cc1ccnc2c1NC(=O)c1cccnc1N2C1CC1,IIIB,,syncytia,0.01125 µM
O=C(CN1CCCC1)Nc1ccc(Cc2ccc(NC(=O)CN3CCCC3)cc2)cc1,IIIB,,MTT,17.05 µg/mL
COC1=C(OC)C(=O)C23COc4c5c(cc(c42)[C@@H](OC(=O)c2ccccc2)[C@@H](C)[C@@H](C)CC3=C1)OCO5,,,MTT,22.1 µg/mL
O=C1c2ccncc2C(=O)N1CCNC(=S)Nc1ccc(Br)cn1,IIIB,,cytopathic effect / MTT,>2 µM
COC(=O)C(C(=O)OC)=C1NC(=O)N([C@H]2C=C[C@@H](CO)O2)C=C1C,,,,>50 µM
COC(=O)CCC(C)[C@H]1CCC2C3CC[C@@H]4C[C@H](OC(=O)c5ccccc5)CC[C@]4(C)C3=C(NC(=O)OCc3ccccc3)C(=O)[C@@]21C,IIIB,,,8 µM
Cc1ccnc2c1NC(=O)c1cccnc1N2C1CC1,NL4-3,V108I,p24 / ELISA,0.44 µM
N#Cc1ccc(NC(=S)OCCN2C(=O)c3ccccc3C2=O)cc1,IIIB,,p24,<0.1 µM
C=C(C)[C@@]1(O)[C@H](OC(C)=O)[C@@H]2[C@H](OC(C)=O)[C@@]3(C)O[C@@]4([C@@H]3OC(=O)c3ccccc3)[C@@H](OC(C)=O)[C@@H](C)C[C@H]4[C@@]2(O)[C@H](C)[C@@H]1OC(=O)c1ccccc1,IIIB,,cytopathic effect / syncytia,67.68 µg/mL
C=C(C)[C@@]12OC3(c4ccccc4)O[C@@H]1[C@@H]1[C@@H]4O[C@]4(CO)[C@@H](O)[C@]4(O)C(=O)C(C)=C[C@H]4[C@@]1(O3)[C@H](C)[C@H]2OC(=O)C(C)C,IIIB,,syncytia / visual reading,7.35 µM
COC(O)c1cc(O)c(O)c(O)c1,IIIB,,syncytia,16.2 µM
COc1cc(C(c2ccc3c(c2)OCO3)C(C(=O)O)C(CO)CO)ccc1O,IIIB,,MTT,2.97 µg/mL
Cc1cn([C@H]2C[C@H](N=[N+]=[N-])[C@@H](COP(=O)(Oc3ccc(C#N)cc3)Oc3ccc(C#N)cc3)O2)c(=O)[nH]c1=O,IIIB,,ELISA,0.0032 µM
Cc1cn([C@H]2C[C@H](OS(C)(=O)=O)[C@@H](COP(=O)(OCC(Cl)(Cl)Cl)OCC(Cl)(Cl)Cl)O2)c(=O)[nH]c1=O,RF,,p24 / ELISA,8 µM
NC(=O)c1[nH]c2ccc(Cl)cc2c1S(=O)(=O)c1ccccc1,WILD TYPE,,MTT,0.003 µM
C=C(C)[C@]12C[C@@H](C)[C@@]34OC(c5ccccc5)(O[C@@H]1[C@@H]3[C@@H]1O[C@]1(CO)[C@@H](O)[C@@]1(O)[C@H]4C[C@H](C)[C@@H]1OC(=O)c1ccccc1)O2,IIIB,,syncytia / visual reading,6.8 µM
CC(C)=CCC/C(C)=C/CC/C(C)=C/CC/C(C)=C/Cc1cc(O)cc2c1OC(=O)C2=C(C)C,IIIB,,syncytia,0.75 µM
CC(C)c1c(COC(N)=O)cn(Cc2ccncc2)c1Sc1cc(Cl)cc(Cl)c1,,RT-Y181C,p24,<20 µM
COC(=O)CCC(C)[C@H]1CCC2C3CC[C@@H]4C[C@H](OC(=O)c5ccccc5)CC[C@]4(C)C3=C(NC(=O)C(C)(C)C)C(=O)[C@@]21C,IIIB,,,200 µM
Cc1nc(CCCCCCC(=O)c2ccccc2)n2nc(-n3cccc3)ccc12,RF,,syncytia,0.007 µM
Oc1cc(O)c2c(c1)O[C@H](c1cc(O)c(O)c(O)c1)[C@@H](O)C2,IIIB,,ELISA,5 µg/mL
O=[N+]([O-])c1ccccc1S(=O)(=O)c1ccccc1,RF,,,3.2 µM
Cc1cn([C@H]2C[C@H](N=[N+]=[N-])[C@@H](CO)O2)c(=O)[nH]c1=O,IIIB,,,0.016 µM
COc1cc([C@@H]2c3c(cc(OC)c(O)c3OC)C[C@H](CO)[C@H]2CO)cc(OC)c1O,IIIB,,syncytia,87.89 µM
COC1=C(OC)C(=O)C23C(=C1)C[C@@H](C)[C@]2(C)[C@@H](O)c1cc2c(c(OC)c13)OCO2,,,MTT,79.5 µg/mL
Nc1ncnc2c1ncn2CCOCP(=O)(O)O,RF,,p24,1.5 µM
C/C=C(/C)C(=O)OC1c2cc3c(c4c2[C@](C(=O)C(=O)OC)(CO4)/C(=C\C(=O)OC)C[C@@H](C)[C@H]1C)OCO3,,,MTT,19.9 µg/mL
O=C1c2ccccc2C(=O)N1CCOC(=S)Nc1ccc(F)cc1,IIIB,,p24,<0.1 µM
Cc1cn([C@H]2C[C@H](N=[N+]=[N-])[C@@H](CO)O2)c(=O)[nH]c1=O,IIIB,,p24,0.016 µM
Cc1cc(O)c2c(c1)C(=O)c1cc(O[C@@H]3O[C@H](CO[C@@H]4O[C@@H](C)[C@H](O)[C@@H](O)[C@H]4O)[C@@H](O)[C@H](O)[C@H]3O)cc(O)c1C2=O,IIIB,,syncytia,2.9 µg/mL
Cc1cn(-c2ccc3c(C)nc(CCCCCCC(=O)c4ccccc4)n3n2)cn1,RF,,p24,0.16 µM
Nc1ncc2ncn([C@H]3CC[C@@H](CO)O3)c2n1,IIIB,,syncytia,40 µM
O=c1[nH]cnc2c1ncn2[C@H]1CC[C@@H](CO)O1,HXB2,,p24,2.9 µM
Nc1ncnc2c1ncn2CCOCP(=O)(O)O,RF,,p24,1.5 µM
O=C(O[C@@H]1Cc2c(O)cc(O)cc2O[C@@H]1c1ccc(O)c(O)c1)c1ccccc1,IIIB,,MTT,17.01 µg/mL
Cc1nc(CCCCCOC(=O)c2ccccc2)n2nc(Cl)ccc12,RF,,p24,1.1 µM
Cc1cn([C@H]2C[C@H](N=[N+]=[N-])[C@@H](CO)O2)c(=O)[nH]c1=O,,,MTT,0.00203 µg/mL
CS(=O)(=O)O[C@H]1C[C@H](n2ccc(=O)[nH]c2=O)O[C@@H]1COP(=O)(OCC(Cl)(Cl)Cl)OCC(Cl)(Cl)Cl,RF,,p24 / ELISA,>100 µM
Cc1cn([C@H]2C[C@H](N=[N+]=[N-])[C@@H](CO)O2)c(=O)[nH]c1=O,HXB2,,p24,0.018 µM
O=C(CCCCCCc1ncc2ccc(Cl)nn12)c1ccccc1,RF,,syncytia,0.21 µM
COc1ccc2c(c1)CCCN2CCC(=O)N1CCN(c2ccccc2)CC1,IIIB,,syncytia / visual reading,14.21 µg/mL
O=c1c2cccn2c2ccccc2n1CCNC(=S)Nc1ccc(Cl)cn1,IIIB,,cytopathic effect / MTT,1.2 µM
O=C1c2ccccc2C(=O)N1CCOC(=S)Nc1ccc([N+](=O)[O-])cc1,IIIB,,p24,<0.03 µM
Cc1cn([C@H]2C[C@H](OS(C)(=O)=O)[C@@H](CO)O2)c(=O)[nH]c1=O,RF,,p24 / ELISA,>100 µM
COc1cc([C@@H]2c3cc(O)c(OC)cc3C[C@@H](CO)[C@@H]2CO)ccc1O,IIIB,,syncytia,88.69 µM
O=C(/C=C/c1ccc(O)cc1)O[C@@H]1Cc2c(O)cc(O)cc2O[C@@H]1c1ccc(O)c(O)c1,IIIB,,MTT,18.07 µg/mL
Cc1cn([C@H]2C[C@H](N=[N+]=[N-])[C@@H](CO)O2)c(=O)[nH]c1=O,IIIB,,syncytia,0.002 µM
C=C(C)[C@@]1(O)[C@H](OC(=O)c2ccccc2)[C@@H]2[C@H](OC(C)=O)[C@@]3(C)O[C@@]4([C@@H]3OC(=O)c3ccccc3)[C@@H](OC(C)=O)[C@@H](C)C[C@H]4[C@@]2(O)[C@H](C)[C@@H]1O,IIIB,,cytopathic effect / syncytia,2.04 µg/mL
Cc1nc(CCCCCCC(O)c2ccccc2)n2nc(Cl)ccc12,RF,,p24,<0.08 µM
O=c1c(-c2ccc(O)cc2)coc2cc(OCc3ccc(F)cc3)cc(O)c12,IIIB,,syncytia,22 µg/mL
NC1=Nc2c(ncn2CCC/C=C/P(=O)(O)O)C(=O)C1,RF,,p24,12 µM
C=C(C)[C@@]1(O)[C@H](OC(C)=O)[C@@H]2[C@H](OC(=O)c3ccccc3)[C@@]3(C)O[C@@]4([C@@H]3OC(=O)c3ccccc3)[C@@H](O)[C@@H](C)C[C@H]4[C@@]2(O)[C@H](C)[C@@H]1OC(=O)c1ccccc1,IIIB,,cytopathic effect / syncytia,9.17 µg/mL
Cc1cn([C@H]2C[C@H](N=[N+]=[N-])[C@@H](CO)O2)c(=O)[nH]c1=O,IIIB,,ELISA,0.008 µM
C=C(C)[C@@]1(O)[C@H](O)[C@@H]2[C@@H]3O[C@]3(CO)[C@@H](O)[C@]3(O)C(=O)C(C)=C[C@H]3[C@@]2(O)[C@H](C)[C@H]1OC(C)=O,IIIB,,syncytia / visual reading,2.46 µM
COc1ccc2c(c1)CCCN2CCC(=O)N1CCN(c2cccc(Cl)c2Cl)CC1,IIIB,,syncytia / visual reading,17.4 µg/mL
C=C(C)[C@H](O)COc1cc(OC)c2c(c1)C(=O)c1c(O)ccc(O)c1-2,IIIB,,MTT,1.46 µg/mL
COc1ccc(N2CCN(C(=O)CCN3CCCc4cc(OC)ccc43)CC2)cc1,IIIB,,syncytia / visual reading,21.54 µg/mL
Cc1nc(CCCCCCC(=O)c2ccccc2)n2nc(Cl)ccc12,RF,,syncytia,0.08 µM

The first 11 rows once more:

SMILES | strain or isolate | mutations | read by | result
CCC1(c2ccc(COc3ccccc3)cc2)Oc2ccccc2-n2cccc2C1=O | IIIB |  | cytopathic effect | 0.083 µM
O=C(Oc1cc(O)c2c(c1)O[C@H](c1ccc(O)c(O)c1)[C@@H](O)C2)c1cc(O)c(O)c(O)c1 | IIIB |  | ELISA | 10 µg/mL
Cc1cn([C@H]2C[C@H](C#N)[C@@H](CO)O2)c(=O)[nH]c1=O | CBL-1 |  | cytopathic effect | >100 µg/mL
C=C(C)[C@@]1(OC(=O)c2ccccc2)[C@H](OC(C)=O)[C@@H]2[C@H](OC(C)=O)[C@@]3(C)O[C@@]4([C@@H]3O)[C@@H](O)[C@@H](C)C[C@H]4[C@@]2(O)[C@H](C)[C@@H]1OC(C)=O | IIIB |  | syncytia / visual reading | 0.684 µM
CC(C)c1c(CO)cn(Cc2ccncc2)c1Sc1cc(Cl)cc(Cl)c1 |  | RT-Y181C | p24 | <1.7 µM
Cc1cn([C@H]2C[C@H](N=[N+]=[N-])[C@@H](COP(=O)(Oc3ccc(C(F)(F)F)cc3)Oc3ccc(C(F)(F)F)cc3)O2)c(=O)[nH]c1=O | IIIB |  | ELISA | 0.0064 µM
C/C=C(/C)C(=O)Oc1c(OC)c(OC)cc2c1-c1c(cc(OC)c(OC)c1OC)[C@H](O)[C@H](C)[C@H](C)C2 |  |  | MTT | 22.9 µM
C=C1C([C@@H](C)[C@H]2CC=C(C)C(=O)O2)=CC[C@]2(C)[C@H]1C[C@]1(O)C=C3C=CC(=O)OC(C)(C)[C@@H]3[C@H](OC(C)=O)C[C@@H]21 |  |  | MTT | 3.8 µg/mL
[Li+] | IIIB |  | antigen | >1000 µg/mL
C/C=C(/C)C(=O)O[C@H]1c2cc3c(c4c2C2(CO4)C(=O)C(OC)=C(OC)[C@H]4O[C@@H]([C@@H](C)[C@H]1C)C42O)OCO3 |  |  | MTT | 64.4 µg/mL
O=c1c2cccn2c2cccc(F)c2n1CCNC(=S)Nc1ccc(Br)cn1 | IIIB |  | cytopathic effect / MTT | 0.025 µM

Conditions beyond the fields shown may differ between rows. Blank or dashed fields: not listed here.